Compound potency records, mixed from different reports. Data source: NIAID ChemDB in PubChem.

Shared fields: whole-cell or culture tests; species: Mycobacterium tuberculosis

Lines come from different laboratories, so protocols vary. An empty or dashed field is not shown. MIC50, MIC90 and the like: level of inhibition, or share of isolates inhibited. Two numbers with a dash give a range or band. MIC bound comes from a single tested concentration. Inhibition is in % at the dose shown (toxicity tests: loss of growth or viability).

SMILES,dose,mutations,read by,conditions,measure,cells,strain or isolate,value
CCOC(=O)c1cc(CN(C)c2cccc3ccccc23)on1,,,,,MIC,,H37Rv,6.5 µM
C=C(C)[C@@H]1CC[C@]2(C)CC[C@]3(C)[C@H](CC[C@@H]4[C@@]5(C)CC[C@H](OC(C)=O)C(C)(C)[C@@H]5CC[C@]43C)[C@@H]12,,,,,MIC,,H37Rv,>128 µg/mL
COc1cc2oc3cc(OC)c(C(C)=O)c(CC=C(C)C)c3c(=O)c2c(O)c1CC=C(C)C,,,resazurin,,MIC,,H37Ra,>200 µg/mL
C[C@]1(COc2ccc(-n3cc(-c4ccc(C(F)(F)F)cc4)nn3)cc2)Cn2cc([N+](=O)[O-])nc2O1,,,broth dilution / resazurin,,MIC,,H37Rv,1.03 µM
Oc1ccccc1C=Nc1ccc(-c2nnc(NCc3ccccc3)s2)cc1,6.25 µg/mL,,,,inhibition,,H37Rv,1%
CC(=O)c1c(OCc2ccccc2)cc2oc3cc(O)c(CCC(C)C)c(O)c3c(=O)c2c1CCC(C)C,,,resazurin,,MIC,,H37Ra,6.25 µg/mL
O=C(O)[C@H]1/C(=C/CO)O[C@@H]2CC(=O)N21,,,,,MIC,,H37Rv,>16 µg/mL
CCOC(=O)c1cc(-c2cccc(N)c2)on1,,,low oxygen,,MIC,,H37Rv,41.5 µM
CC(C)(O)C1=CC[C@@]2(C)C[C@@H]3O[C@]3(C)CC[C@@H]3O[C@@]3(C)CC[C@H]12,,,,,MIC,,H37Rv,>128 µg/mL
Oc1cccc2cccnc12,,,,,MIC50,,H37Rv,>10 µg/mL
O=C(c1ccncc1)N1N=C(c2ccco2)CC1(O)C(F)(F)F,,,,,MIC,,RGH101,38.46 µM
COc1c(O)cc2oc3cc(O)c(CCC(C)C)c(O)c3c(=O)c2c1CCC(C)C,,MDR,resazurin,,MIC,,M16,3.12 µg/mL
CCc1cccc(CC)c1Nc1nc2c(s1)C(=O)c1ccccc1C2=O,,,BACTEC,,MIC,,H37Rv,1.6 µg/mL
CN1C(=O)Cc2cc(C(=O)CN3CCN(c4ccccn4)CC3)ccc21,,,visual reading / absorbance,,MIC,,H37Rv,3.12 µg/mL
CCOC(=O)c1cc(CN(C)c2ccc(OC(F)(F)F)cc2)on1,,,low oxygen,,MIC,,H37Rv,7.5 µM
O=C1Cc2cc(C(=O)CN3CCN(c4noc5cccc(Cl)c45)CC3)ccc2N1,,,visual reading / absorbance,,MIC,,H37Rv,25 µg/mL
O=[N+]([O-])c1ccc(C=Nc2ccc(-c3nnc(NCc4ccccc4)s3)cc2)o1,6.25 µg/mL,,,,inhibition,,H37Rv,0%
O=S1(=O)OCCCCO1,,,resazurin,,MIC bound,,H37Rv,>6.25 µg/mL
CC(=O)Oc1ccccc1C(=O)Nc1ncc([N+](=O)[O-])s1,,,visual reading,,MIC,,LAM spoligotype 20,20 µg/mL
Cc1ccc2cccc(O)c2n1,,,,,MIC50,,H37Rv,>10 µg/mL
CN1C(=O)Cc2cc(C(=O)CN3CCN(c4noc5c(Cl)cccc45)CC3)ccc21,,,visual reading / absorbance,,MIC,,H37Rv,12.5 µg/mL
CSC(=S)N/N=C(/C)c1cccs1,,,,,MIC,VERO,H37Rv,0.8 µg/mL
CC(=O)OCC1=C(C(=O)O)N2C(=O)[C@@H](NC(=O)Cc3cccs3)[C@H]2SC1,,,,,MIC,,Isolate 5,>16 µg/mL
C[C@]1(COc2ccc(-c3cc(COc4ccc(C(F)(F)F)cc4)on3)cc2)Cn2cc([N+](=O)[O-])nc2O1,,,broth dilution / resazurin,,MIC,,ss18b non-replicating phase,7.75 µM
CCOCC(O)CNCCNCC(O)COCC,,,,,MIC bound,,H37Rv,>6.25 µg/mL
C[C@]1(COc2ccc(N3CCC(Oc4ccc(OC(F)(F)F)cc4)CC3)cc2)Cn2cc([N+](=O)[O-])nc2O1,,,,,MIC,,H37Rv (INH-resistant),0.012 µg/mL
Cc1cc(N)c2ncccc2c1,,,,,MIC50,,H37Rv,>10 µg/mL
COc1ccccc1/C=N/Nc1ccccn1,12.5 µg/mL,,BACTEC,,inhibition,,H37Rv,-5%
CCOC(=O)C/C(C)=N\NC(=O)c1ccncc1,,,,,MIC90,,,0.05 µg/mL
CCOC(=O)c1cc(CNc2cc(OC)cc(OC)c2)on1,,,low oxygen,,MIC,,H37Rv,28.2 µM
CC1=CC(=Nc2ccc(N(C)C)cc2)C=C(C)C1=O,,,resazurin,,MIC,,H37Rv,3.13 µg/mL
COc1ccc(-c2cn(-c3ccc(OC[C@@]4(C)Cn5cc([N+](=O)[O-])nc5O4)cc3)nn2)cc1,,,broth dilution / resazurin,,MIC,,ss18b non-replicating phase,>35 µM
Nc1ccc2c(O)c(N=Nc3ccc(N=Nc4ccc(S(=O)(=O)[O-])cc4)cc3)c(S(=O)(=O)[O-])cc2c1N=Nc1ccc(N=Nc2ccc(S(=O)(=O)[O-])cc2)cc1.[Na+].[Na+].[Na+],,,BACTEC,,MIC bound,,H37Rv,>12.5 µg/mL
CCOC(=O)c1cc(CNc2cc(C)cc(C)c2)on1,,,low oxygen,,MIC,,H37Rv,14.4 µM
COc1ccc(Cc2cc(N=O)c(OC)cc2O)cc1,,,BACTEC,,MIC bound,,H37Rv,>12.5 µg/mL
CO[C@H]1/C=C/O[C@@]2(C)Oc3c(C)c(O)c4c(=O)c(c5oc6cc(N7CCN(CC(C)C)CC7)cc(=O)c6nc5c4c3=C2O)NC(=O)/C(C)=C\C=C\[C@H](C)[C@H](O)[C@@H](C)[C@@H](O)[C@@H](C)[C@H](OC(C)=O)[C@@H]1C,10 µg/mL,,,inside macrophages,inhibition,,Watanabe,32.9%
COC(=O)[C@H]1[C@H](O)[C@H](C)[C@@H](O)[C@@H](C)/C=C(\C)C2=C3C(=C(C)C(=O)c4c(O)c(c(C)c(OC(C)=O)c43)NC(=O)/C(C)=C/C=C\[C@@H](C)C(O)[C@@H](C)[C@H]1O)OCO2,,,,,MIC,,KM-R,0.4 µg/mL
CCNc1nnc(-c2ccc(N=Cc3cccc([N+](=O)[O-])c3)cc2)s1,6.25 µg/mL,,,,inhibition,,H37Rv,0%
O=C(c1ccncc1)N1N=C(c2ccccc2)CC1(O)C(F)(F)F,,,,,MIC,,RGH104,18.66 µM
Nc1cc(-c2ccccc2)cn1-c1nnc(-c2ccc(Br)cc2)s1,6.25 µg/mL,,resazurin,,inhibition,,H37Rv,-43%
C=CCOc1cc2oc3cc(OCC=C)c(C(C)=O)c(CCC(C)C)c3c(=O)c2c(O)c1CCC(C)C,,,resazurin,,MIC,,H37Ra,>200 µg/mL
CC(C)(C)C1CCC(=NNC(=O)c2ccncc2)CC1,,,,,MIC,,,0.05 µg/mL
Cc1cc(O)c2ncccc2c1,,,,,MIC50,,H37Rv,0.5–1 µg/mL
Cc1ccc(C2=NN(C(=O)c3ccncc3)C(O)(C(Cl)(Cl)Cl)C2)cc1,,,,,MIC,,RGH102,>252 µM
CCCn1c(=O)c2nn3c(=O)n(CCC)c(=O)c3nn2c1=O,,,BACTEC,,MIC bound,,H37Rv,>12.5 µg/mL
C[C@@H](O)[C@H]1C(=O)N2C(C(=O)O)=C(SCCN=CN)C[C@H]12,,,,,MIC,,Isolate 1,4 µg/mL
CSc1nc2c(=O)[nH][nH]c(=O)c2n1Cc1ccccc1,,,BACTEC,,MIC bound,,H37Rv,>12.5 µg/mL
O=C1Cc2cc(C(=O)CN3CCN(c4noc5c(Cl)cccc45)CC3)ccc2N1,,,visual reading / absorbance,,MIC,,H37Rv,>50 µg/mL
CCOC(=O)c1cc(CNc2ccccc2CC)on1,,,resazurin,,MIC,,H37Rv,13.7 µM
O=C(c1ccncc1)N1N=C(c2ccco2)CC1(O)C(Cl)(Cl)Cl,,,,,MIC,,H37Rv,>268 µM
CNC(=O)OCn1cnc(Cl)c1Cl,,,BACTEC,,MIC bound,,H37Rv,>12.5 µg/mL
[C-]#[N+][C@@]1(C)CC[C@H]2[C@H]3[C@@H](C(=C)CC[C@@H]31)[C@H](C=C(C)C)C[C@@H]2C,,,,,MIC,,H37Rv,8 µg/mL
COc1ccc(-c2coc3c4c(c(CC=C(C)C)c(OC)c3c2=O)OC(C)(C)C=C4)cc1,,,BACTEC,,MIC bound,,H37Rv,>12.5 µg/mL
CNc1nnc(-c2ccc(N=Cc3cccc([N+](=O)[O-])c3)cc2)s1,6.25 µg/mL,,,,inhibition,,H37Rv,0%
COc1ccc2c(c1)[n+](=O)c(C(=O)C/C(=N\OCCCc1ccccc1)C(=O)NC13CC4CC(CC(C4)C1)C3)c(C)n2[O-],,,BACTEC,,MIC,,H37Rv,≥12.5 µg/mL
CCOC(=O)c1cc(CNc2cccc(C#N)c2)on1,,,resazurin,,MIC,,H37Rv,57.9 µM
Cc1ccc(Nc2nnc(-c3ccc(N=Cc4ccccc4O)cc3)s2)cc1,6.25 µg/mL,,,,inhibition,,H37Rv,34%
CCOC(=O)c1cnc2c(ccc3ncccc32)c1OCC,,,BACTEC,,MIC,,H37Rv,≥12.5 µg/mL
C[C@]1(COc2ccc(-n3cc(COc4cccc(Cl)c4)nn3)cc2)Cn2cc([N+](=O)[O-])nc2O1,,,broth dilution / resazurin,,MIC,,ss18b non-replicating phase,8.3 µM
COC(=O)/C(=C1\OC(=O)C(c2ccccc2)=C1O)c1ccccc1,,,,,MIC,,H37Rv,64 µg/mL
C[C@]1(COc2ccc(-c3cc(-c4ccc(F)cc4)on3)cc2)Cn2cc([N+](=O)[O-])nc2O1,,,broth dilution / resazurin,,MIC,,H37Rv,2.29 µM
COc1c(OC(=O)c2ccccc2)cc2oc3cc(OC(=O)c4ccccc4)c(CCC(C)C)c(O)c3c(=O)c2c1CCC(C)C,,,resazurin,,MIC,,H37Ra,12.5 µg/mL
CN1c2ccc(C=O)cc2Sc2cc(C=O)ccc21,12.5 µg/mL,,BACTEC,,inhibition,,H37Rv,93%
COc1c(OCC(N)=O)cc2oc3cc(O)c(CCC(C)C)c(O)c3c(=O)c2c1CCC(C)C,,,resazurin,,MIC,,H37Ra,1.56 µg/mL
COC(=O)C(Cc1nc2ccc(Cl)cc2[nH]c1=O)/C(=N\N)C(=O)Nc1cc(C)c(Cl)cc1S(=O)(=O)O,12.5 µg/mL,,BACTEC,,inhibition,,H37Rv,0%
CO[C@H]1/C=C/O[C@@]2(C)Oc3c(C)c(O)c4c(O)c(c(/C=N/N5CCN(C6CCCC6)CC5)c(O)c4c3C2=O)NC(=O)/C(C)=C\C=C\[C@H](C)[C@H](O)[C@@H](C)[C@@H](O)[C@@H](C)[C@H](O)[C@@H]1C,,,,,MIC,,Isolate 910328 rifampicin-resistant,>64 µg/mL
Cn1c(=O)c2nc(-c3ccccc3)nnc2n(CCO)c1=O,12.5 µg/mL,,BACTEC,,inhibition,,H37Rv,0%
N[C@H]1CCN(c2nc3c(cc2F)c(=O)c(C(=O)O)cn3C2CC2)C1,1 µg/mL,,,inside macrophages,inhibition,Macrophages,H37Rv,70%
Oc1c(Cl)c(Oc2cc(Cl)cc(Cl)c2)cc(Oc2ccc(Cl)cc2Cl)c1Cl,,,,,MIC,,H37Rv,>128 µg/mL
CS(=O)(=O)OCCN(CCOS(C)(=O)=O)c1ccc(C=Nc2ccc(-c3cnc(-c4ccc(Cl)cc4)s3)cc2)c(Cl)c1.Cl,12.5 µg/mL,,BACTEC,,inhibition,,H37Rv,0%
CO[C@H]1/C=C/O[C@@]2(C)Oc3c(C)c(O)c4c(O)c(c(/C=N/N5CCN(C)CC5)c(O)c4c3C2=O)NC(=O)/C(C)=C\C=C\[C@H](C)[C@H](O)[C@@H](C)[C@@H](O)[C@@H](C)[C@H](OC(C)=O)[C@@H]1C,,MDR,resazurin,,MIC,,M5,>2 µg/mL
CCN(CC)CCOC(=O)c1ccc2cccnc2c1O,,,,,MIC50,,H37Rv,>10 µg/mL
CCOc1cc2oc3cc(O)c(CCC(C)C)c(O)c3c(=O)c2c(CCC(C)C)c1OC,,,resazurin,,MIC,,H37Rv,1.56 µg/mL
NNC(=O)c1ccncc1,,,,,MIC,,Isolate UT2883 (katG S315T mutation),8 µg/mL
[C-]#[N+][C@@]1(C)C2CC[C@H]3[C@H]4[C@H](CC[C@]3(C)[N+]#[C-])[C@@H](C)C[C@@H](CC1(C)C)[C@H]24,,,,,MIC,,H37Rv,8 µg/mL
CCOC(=O)c1cc(-c2ccc(CO)cc2)on1,,,resazurin,,MIC,,H37Rv,2.1 µM
C[C@](Cl)([C@@H](Br)/C=C/[C@](C)(Cl)CBr)[C@@H](Br)CCl,,,,,MIC,,H37Rv,>128 µg/mL
CCOc1ccc2ccccc2c1C(=O)N[C@@H]1C(=O)N2[C@@H]1SC(C)(C)[C@@H]2C(=O)O,,,,,MIC,,H37Ra,>16 µg/mL
CC(=O)c1c(O)c(C)c(O)c2c1OC1=CC(=O)C(C(C)=O)C(=O)[C@]12C,,,,,MIC,,H37Rv,16 µg/mL
O=C(NN=C1CCCC1)c1ccncc1,,,,,MIC90,,,1.2 µg/mL